Key:
Assay type in all cases: cell-based, Pseudomonas aeruginosa
P. aeruginosa [1] = experiment: Gold uptake by bacteria, ICP-MS; conditions: 15 μM compound, up to 8 h
P. aeruginosa [2] = experiment: Atomic force microscopy of bacterial surface; conditions: 50 µM; 1 h
P. aeruginosa [3] = experiment: FE-SEM of bacterial morphology; conditions: 50 µM; 1 h
P. aeruginosa [4] = experiment: Transcriptomic assay (RNA-seq); conditions: 15 μM, 4 h; for down-regulated genes / genes with significantly altered transcriptional levels / up-regulated genes: vs control group

## CC(=O)OC[C@H]1O[C@@H]([S-])[C@H](OC(C)=O)[C@@H](OC(C)=O)[C@@H]1OC(C)=O.CCP(CC)CC.[Au+] [Au9, auranofin]
P. aeruginosa [1]
  final cellular concentration of Au: approximately 40 ng/mg bacterial wet weight
P. aeruginosa [2]
  root-mean-square roughness (Rq) of the bacterial surface: 3.8 ± 0.7 nm
P. aeruginosa [3]
  bacterial morphology (FE-SEM): no significant changes
P. aeruginosa [4]
  KEGG pathways affected by this compound alone: 44 pathways
  down-regulated genes: 734 genes
  genes with significantly altered transcriptional levels: 1,512 genes
  up-regulated genes: 778 genes

## NHC^Me-Au-Cl [Au1]
P. aeruginosa [1]
  final cellular concentration of Au: approximately 40 ng/mg bacterial wet weight
P. aeruginosa [2]
  root-mean-square roughness (Rq) of the bacterial surface: 10.5 ± 1.5 nm
P. aeruginosa [3]
  bacterial morphology (FE-SEM): wrinkling and collapsed structures
P. aeruginosa [4]
  KEGG pathways affected by this compound alone: 6 pathways
  down-regulated genes: 299 genes
  genes with significantly altered transcriptional levels: 680 genes
  up-regulated genes: 381 genes

From paper PMC9096233, “Identification of an Au(I) N-Heterocyclic Carbene Compound as a Bactericidal Agent Against Pseudomonas aeruginosa” (Frontiers in Chemistry, 2022)
